Values from PubChem BioAssay AID504761 (Drosophila RNAi Screening Center, 2011)
The screen tested about 22,000 reagents; this is a random part of those that have a named target and a result. Of all reagents, 116 (0.52%) were called active. 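Calls depend on retest data that are not deposited; infection was ranked per plate without normalising between plates; the unit of the infection score is not given.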 Raw values vary from plate to plate and are shown uncorrected. Names joined by + are all predicted targets of the reagent. Not stated in the record: the amount of reagent, the time to read-out.

- Aim: 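Fly genes whose silencing reduces dengue virus type 2 infection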 (primary screen)
- System: D.Mel-2 cells from Drosophila
- Knock-down reagent: long dsRNA against Drosophila genes
- Treatment: infection with dengue virus type 2; dose and infection time not stated
- Detection: 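Per well on two replicate plates, imaging gave the percent of cells positive for viral envelope protein, ranked by infection, and a nuclear count of cells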
- Reading the numbers: infection score: higher = more virus-infected cells; cell count: higher = more cells in the well
- Rule for the call: 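Very low infection ranking in both replicate wells (chance probability at most 0.065), then a retest showing infection dropped 1.5-fold or more at p below 0.05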
- Meaning of the calls: active = confirmed: knock-down lowers infection; inactive = not picked or not confirmed

Target gene,dsRNA,"infection score, replicate 1","infection score, replicate 2","cell count, replicate 1","cell count, replicate 2",Outcome
cype,DRSC02356,2.34,6.32,6417,5850,inactive
CG14543,DRSC14887,3.75,19.1,4913,2329,inactive
CG14543,DRSC26647,10.3,6.9,5448,5959,inactive
qjt,DRSC10060,1.26,2.07,6012,5892,inactive
qjt,DRSC24901,8.16,3.34,5162,5391,inactive
Cul5,DRSC14723,2.25,5.19,6535,1964,inactive
CG30380,DRSC05069,0.09,0.44,6518,6140,inactive
ND-24,DRSC19960,1.3,1.83,6366,6386,inactive
CG11634,DRSC03700,7.43,24.9,3390,5082,inactive
CG32706 + CG6999,DRSC18412,13.2,19.7,5909,5279,inactive
CG32706 + CG6999,DRSC23954,9.5,1.93,6523,6359,inactive
CG12849,DRSC04129,1.87,29.3,6425,4739,inactive
Helz,DRSC11072,5.19,2.39,6664,6681,inactive
x16,DRSC00960,3.71,0.9,6489,6188,inactive
x16,DRSC03638,4.56,1.91,6029,5815,inactive
x16,DRSC23865,2.17,3,6441,6570,inactive
p23,DRSC15158,12.3,31.7,2912,5664,inactive
p23,DRSC27806,10.9,13.3,6635,6417,inactive
Vps24,DRSC12332,13,7.17,2208,6106,inactive
Vps24,DRSC29224,1.19,,503,443,inactive
trsn,DRSC06078,8.99,14.6,6754,6142,inactive
PIG-H + Kmn2,DRSC12653,2.8,3.37,4646,2046,inactive
SmydA-2,DRSC10296,7.07,3.11,6552,6872,inactive
cyst,DRSC02023,16.8,8.75,6609,6274,inactive
stc,DRSC03620,26.7,8.5,5736,6320,inactive
CG17264,DRSC00500,6.84,0.56,6094,6568,inactive
CG17264,DRSC29452,9.58,21.3,5920,6101,inactive
Septin4,DRSC20205,14.7,3.44,6272,6396,inactive
Septin4,DRSC25409,7.84,7.71,5945,6366,inactive
CG3939,DRSC18498,1,1.14,6292,6235,inactive
Glyp,DRSC00752,6.19,1.39,6707,6280,inactive
CG15572,DRSC24999,1.33,2.97,6626,6320,inactive
CG32668,DRSC18879,2.24,8.4,6306,5932,inactive
CG12783,DRSC14538,0.52,5.81,6529,7043,inactive
CG13614,DRSC14617,1.74,5.09,6678,5968,inactive
Cyp12b2,DRSC07364,2.21,4.76,6659,5880,inactive
Gr64e + Gr64d,DRSC28375,9.83,14.3,5360,5139,inactive
CG15822,DRSC08482,4.89,2.31,6098,6574,inactive
CG15822,DRSC08483,3.83,1.54,6351,6478,inactive

Copied from the list.
Entry for CG32706 + CG6999 [DRSC18412] in “infection score, replicate 2”: 19.7
CG13614 [DRSC14617], infection score, replicate 2: 5.09
